Measured values: patent US12559474B2, “Triazine derivatives having virus replication inhibitory activity and pharmaceutical composition comprising the same” (priority 2021, dated 2026)

Columns and labels:
[1] = target: SARS-CoV-2 3CL protease (Severe acute respiratory syndrome coronavirus 2, UniProt P0DTD1); conditions: 50% SARS-CoV-2 3CL protease inhibitory concentration, given as class symbols
[2] = system: SARS-CoV-2; assay: Inhibitory activity of cytopathic effect (CPE) in Vero E6/TMPRSS2 cells infected with SARS-CoV-2; assay type: cell-based; conditions: 50% SARS-CoV-2 infected cell death inhibitory concentration; VeroE6/TMPRSS2 cells, 3 days culture; class symbols

O=c1[nH]cccc1Cn1c(=O)nc(Nc2cc3cn([C@H]4CCC[C@@H]4O)nc3cc2Cl)n(Cc2cc(F)c(F)c(F)c2)c1=O (relative stereo)
IC50 [1]: < 100 nM | EC50 [2]: 1000 to 10000 nM

Cc1cncc(-n2c(=O)nc(Nc3cc4cn(C)nc4cc3Cl)n(Cc3cccc(Cl)c3)c2=O)c1
IC50 [1]: < 100 nM | EC50 [2]: < 1000 nM

Cc1cncc(-n2c(=O)nc(Nc3cc4cn(C)nc4cc3Cl)n(Cc3cccc(C#N)c3)c2=O)c1
IC50 [1]: < 100 nM | EC50 [2]: < 1000 nM

Cc1cncc(-n2c(=O)nc(Nc3ccc4nc(NCC(F)F)sc4c3)n(Cc3ccc(F)c(C#N)c3)c2=O)c1
IC50 [1]: < 100 nM | EC50 [2]: 1000 to 10000 nM
